{
  "source": "patent US12673036B2",
  "about": "“Method of using L-triiodothyronine (T3) for the treatment of tissue hypoxia and sepsis” (UNI-PHARMA KLEON TSETIS PHARMACEUTICAL LABORATORIES S.A., priority 2020, dated 2026)",
  "tested_on": "critically ill patients with COVID-19 infection",
  "data": [
    {"smiles": "N[C@@H](Cc1cc(I)c(Oc2ccc(O)c(I)c2)c(I)c1)C(=O)O", "note": "[T3, L-triiodothyronine]", "values": [
      {"measurement": "tachycardia, atrial fibrillation, ventricular arrhythmias (heart rate)", "setting": "first 48 hours", "value": "did not induce significant tachycardia, atrial fibrillation, or ventricular arrhythmias"},
      {"measurement": "d-dimers levels", "setting": "first 48 hours after high-dose T3", "value": "remain unchanged"},
      {"measurement": "safety, serious side effects (arrhythmias, pulmonary embolism)", "setting": "intubated COVID-19 patients", "value": "safe, without serious side effects"}
    ]}
  ]
}
